Source: patent US20130224798

Biological target: Toll-like Receptor 5 (TLR5) constitutively expressed by HEK293 cells, not stated, O60602 21-858
Assay: cell-based or functional assay

STF2Δ.EIII+
TLR5 specific-activity against STF2.OVA (fold (against stf2.ova)): > 10 | TLR-5 EC50 (batch 044): 1.13 ng/mL | TLR-5 EC50 (batch 045): 4.34 ng/mL
